{"source": "PubChem BioAssay AID624099 | ICCB-Longwood – 2012", "assay": "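Human genes that papillomavirus E2 requires to repress the HPV18 LCR promoter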 (primary screen)", "system": "human C33A cervical carcinoma cells (HPV-negative) stably expressing BPV1 E2 and an HPV18 LCR luciferase reporter", "reagents": "siRNA pool against human genes, 40 nM", "duration": "72 h", "detection": "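HPV18 LCR reporter light per well, converted to plate-wise z-scores that exclude control wells, and averaged over triplicate plates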", "reading the numbers": "mean z-score and z-score: higher = stronger reporter signal, weaker E2 silencing", "rule for the call": "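Hit if mean z-score reaches 2 and two or more of three replicate z-scores also reach 2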", "note": "Here is an unselected part of about 21,000 reagents tested. Of all reagents, 497 (2.4%) are marked active. 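Higher z means weaker E2 silencing; only reporter increases were scored, and knock-downs that hurt cell survival may mask genuine repressor factors.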"}
{"gene knocked down": "PCYOX1L", "mean z-score": -0.01, "z-score, replicate A": 0.01, "z-score, replicate B": -0.01, "z-score, replicate C": -0.01, "Call": "inactive"}
{"gene knocked down": "RNF144A", "mean z-score": 0.2, "z-score, replicate A": 0.12, "z-score, replicate B": 0.19, "z-score, replicate C": 0.28, "Call": "inactive"}
{"gene knocked down": "EEF1E1", "mean z-score": 0.89, "z-score, replicate A": 1.08, "z-score, replicate B": 0.76, "z-score, replicate C": 0.84, "Call": "inactive"}
{"gene knocked down": "CRYZL1", "mean z-score": 0.26, "z-score, replicate A": 0.08, "z-score, replicate B": 0.39, "z-score, replicate C": 0.29, "Call": "inactive"}
{"gene knocked down": "HYAL4", "mean z-score": 0.13, "z-score, replicate A": 0.11, "z-score, replicate B": 0.21, "z-score, replicate C": 0.07, "Call": "inactive"}
{"gene knocked down": "CT47A11", "mean z-score": -0.24, "z-score, replicate A": -0.22, "z-score, replicate B": 0, "z-score, replicate C": -0.49, "Call": "inactive"}
{"gene knocked down": "FLG2", "mean z-score": -0.5, "z-score, replicate A": -0.29, "z-score, replicate B": -0.58, "z-score, replicate C": -0.61, "Call": "inactive"}
{"gene knocked down": "BBLN", "mean z-score": -2.51, "z-score, replicate A": -2.5, "z-score, replicate B": -2.6, "z-score, replicate C": -2.43, "Call": "inactive"}
{"gene knocked down": "ZNF738", "mean z-score": -0.21, "z-score, replicate A": 0.39, "z-score, replicate B": -0.35, "z-score, replicate C": -0.67, "Call": "inactive"}
{"gene knocked down": "NME8", "mean z-score": -0.16, "z-score, replicate A": 0.08, "z-score, replicate B": -0.38, "z-score, replicate C": -0.17, "Call": "inactive"}
{"gene knocked down": "LOC343052", "mean z-score": 0.01, "z-score, replicate A": 0.42, "z-score, replicate B": 0, "z-score, replicate C": -0.38, "Call": "inactive"}
{"gene knocked down": "HMBS", "mean z-score": 0.91, "z-score, replicate A": 0.84, "z-score, replicate B": 1.44, "z-score, replicate C": 0.43, "Call": "inactive"}
{"gene knocked down": "COX6B2", "mean z-score": -0.56, "z-score, replicate A": -0.63, "z-score, replicate B": -0.41, "z-score, replicate C": -0.65, "Call": "inactive"}
{"gene knocked down": "OR2W1", "mean z-score": 2.18, "z-score, replicate A": 2.11, "z-score, replicate B": 2.2, "z-score, replicate C": 2.24, "Call": "active"}
